A mixed list of measured activities; the numbers were collected in NIAID ChemDB.

All rows: target-level tests; species: Hepatitis C virus

Blank or dashed fields: not listed here. a–b is a range or a potency band. ICn is the concentration giving n% inhibition. Inhibition is in % at the dose shown (toxicity tests: loss of growth or viability). Lines come from different laboratories, so protocols vary.

| SMILES | measure | target | tested at | result |
|---|---|---|---|---|
| O=C(O)c1nc(-c2ccccc2NS(=O)(=O)c2cccc(C(F)(F)F)c2)[nH]c(=O)c1O | IC50 | HCV polymerase |  | <100 µM |
| O=C(O)c1cc2ncc(-c3ccc(OCc4ccccc4)cc3)c(-c3ccccc3)n2n1 | IC50 | RNA-dependent RNA polymerase |  | 1–10 µM |
| O=C(O)c1nc(-c2ccc(Cl)s2)[nH]c(=O)c1O | IC50 | HCV polymerase |  | <25 µM |
| CN(C(=O)c1ccc2ccccc2c1)c1cc(-c2ccccc2)sc1C(=O)O | IC50 | NS3 ATPase |  | 5–20 µM |
| CCC(NC(=O)Nc1cccc(-c2nc(C(=O)O)c(O)c(=O)[nH]2)c1)c1ccccc1 | IC50 | HCV polymerase |  | <100 µM |
| O=C(O)c1cc2ncc(-c3ccc(Oc4ccccc4)cc3)c(-c3ccccc3)n2n1 | IC50 | RNA-dependent RNA polymerase |  | >10 µM |
| O=C(O)c1ccc2c(c1)nc(-c1ccc3nc(-c4ccccc4)cc(Nc4ccccc4)c3c1)n2C1CCCCC1 | inhibition | NS5B polymerase | 33 µM | 92.47% |
| CS(=O)(=O)c1ccc(-c2cc(NC(=O)c3ccc(Cl)cc3Cl)c(C(=O)O)s2)cc1 | IC50 | NS3 ATPase |  | <5 µM |
| O=C(O)c1cc2nc(-c3ccc(C(F)(F)F)cc3)cc(-c3ccc(OCc4ccccc4)cc3)n2n1 | IC50 | RNA-dependent RNA polymerase |  | 1–10 µM |
| CCCC(=O)N(Cc1ccc(C(C)(C)C)cc1)c1cc(-c2ccccc2)sc1C(=O)O | IC50 | NS3 ATPase |  | 5–20 µM |
| O=C(O)c1nc(-c2sccc2NCc2ccccc2)[nH]c(=O)c1O | IC50 | HCV polymerase |  | <25 µM |
| COc1ccc(-c2ccc(Cl)cc2)c(-c2ccc3cc(-c4nc5cc(C(=O)O)ccc5n4C4CCCCC4C)ccc3n2)c1 | inhibition | NS5B polymerase | 33 µM | 103% |
| CN(Cc1ccccc1)c1cc(-c2ccc(Cl)cc2)nc2cc(C(=O)O)nn12 | IC50 | RNA-dependent RNA polymerase |  | >10 µM |
| Cc1cc(-c2ccc3cc(-c4nc5cc(C(=O)O)ccc5n4C4CCCCC4)ccc3n2)c(O)c([N+](=O)[O-])c1 | inhibition | NS5B polymerase | 100 µM | 103% |
| CCCCCc1ccc(C(=O)N(C)c2cc(-c3ccccc3)sc2C(=O)O)cc1 | IC50 | NS3 ATPase |  | >20 µM |
| O=C(O)c1nc(-c2ccccc2NS(=O)(=O)/C=C/c2ccccc2)[nH]c(=O)c1O | IC50 | HCV polymerase |  | <100 µM |
| O=C(O)c1ccc2c(c1)nc(-c1ccc3nc(-c4ccccc4)c(-c4ccccc4)nc3c1)n2C1CCCCC1 | inhibition | NS5B polymerase | 33 µM | 97.29% |
| Cc1ccc(C(=O)N(C)c2cc(-c3ccccc3)sc2C(=O)O)cc1[N+](=O)[O-] | IC50 | NS3 ATPase |  | 5–20 µM |
| CSCCC(NC(=O)c1ccc2c(c1)nc(-c1cc3ncc(-c4ccccc4)nc3cc1F)n2C1CCCCC1)C(=O)O | inhibition | NS5B polymerase | 33 µM | 81.94% |
| CN(C(=O)Cc1ccccc1)c1cc(-c2ccccc2)sc1C(=O)O | IC50 | NS3 ATPase |  | <5 µM |
| Cc1ccc(C(=O)Nc2cccc(-c3nc(C(=O)O)c(O)c(=O)[nH]3)c2)s1 | IC50 | HCV polymerase |  | <100 µM |
| Cc1ccc(C(=O)N(C)c2cc(-c3cccc(N)c3)sc2C(=O)O)cc1 | IC50 | NS3 ATPase |  | 5–20 µM |
| O=C(O)c1cc2nc(-c3cccs3)cc(C(F)(F)F)n2n1 | IC50 | RNA-dependent RNA polymerase |  | >10 µM |
| O=C(CC1CCCCC1)Nc1ccsc1-c1nc(C(=O)O)c(O)c(=O)[nH]1 | IC50 | HCV polymerase |  | <25 µM |
| CC(=O)c1ccc(-c2cc(N(C)C(=O)c3ccc(C)cc3)c(C(=O)O)s2)s1 | IC50 | NS3 ATPase |  | <5 µM |
| COc1ccc(-c2ccc(Cl)cc2)c(-c2ccc3cc(-c4nc5cc(C(=O)O)cnc5n4C4CCCCC4)ccc3n2)c1 | inhibition | NS5B polymerase | 100 µM | 99.76% |

4 of the rows above, restated:

| SMILES | measure | target | tested at | result |
|---|---|---|---|---|
| CN(C(=O)Cc1ccccc1)c1cc(-c2ccccc2)sc1C(=O)O | IC50 | NS3 ATPase |  | <5 µM |
| O=C(O)c1nc(-c2sccc2NCc2ccccc2)[nH]c(=O)c1O | IC50 | HCV polymerase |  | <25 µM |
| CN(C(=O)c1ccc2ccccc2c1)c1cc(-c2ccccc2)sc1C(=O)O | IC50 | NS3 ATPase |  | 5–20 µM |
| COc1ccc(-c2ccc(Cl)cc2)c(-c2ccc3cc(-c4nc5cc(C(=O)O)ccc5n4C4CCCCC4C)ccc3n2)c1 | inhibition | NS5B polymerase | 33 µM | 103% |